Laboratory results reported in article PMC6712400, “Interaction of the Ankyrin H Core Effector of Legionella with the Host LARP7 Component of the 7SK snRNP Complex” (2019).

Target: c-myc-LARP7 (UniProt Q4G0J3)
Test: co-immunoprecipitation (anti-FLAG IP, immunoblot densitometry)
Details: HEK293T cells transiently transfected with 3XFLAG-AnkH mutant and c-myc-LARP7; parent: 0.2274

| Substance | response (LARP7/AnkH relative density) |
| --- | --- |
| 3XFLAG-AnkH (from UniProt Q5ZT65) F33A | 0.54 |
| 3XFLAG-AnkH (from UniProt Q5ZT65) R96A | 0.898 |
